Results of unrelated studies side by side (data: NIAID ChemDB).

Common to all: growth or infection tests; agent: Hepatitis C virus; read by: replicon; endpoint: EC50

ECn: concentration that inhibits the pathogen or its effect by n%. Conditions beyond the fields shown may differ between rows. Two numbers with a dash give a range or band. Blank or dashed fields: not listed here.

structure,strain,cell line,value
CCOc1nc(N)nc2ccc(-c3ccc(Nc4nccs4)cc3)nc12,-,Huh7,0.3–1 µM
CCCCCCC1CCC(c2ccc(NC(N)=S)cc2)CC1,-,Huh7,<1 µM
C=C[C@@H]1C[C@]1(NC(=O)[C@@H]1C[C@@H](Oc2cc(-c3ccccc3)nc3cc(OC)ccc23)CN1C(=O)[C@@H](NC(=O)OC(C)(C)C)C(C)(C)C)C(=O)NS(=O)(=O)CC,1b,Huh7,<0.5 µM
C=C1C(=O)O[C@@H]2[C@H]1CC[C@H](COC(=O)C=C(C)C)[C@]1(O)CCC(=O)[C@@]21C,-,Huh7,<2 µM
Cc1c(NC(=O)C(Cl)Cl)cccc1-c1cc(-c2c(Cl)cccc2Cl)no1,-,-,>10 µM
CNC(=O)c1c(-c2ccc(F)cc2)oc2cc(N(C)S(C)(=O)=O)c(OCC(=O)Nc3nccs3)cc12,-,Huh7,<1 µM
CC(C)Oc1nc(N)nc2ccc(-c3ccc(C(=O)NC4CC4)c(Cl)c3)nc12,-,Huh7,>1 µM
CNC(=O)c1c(-c2ccc(F)cc2)oc2cc(Nc3ccncc3)c(OC(C)C)cc12,-,Huh7,<30 µM
CC(C)(C)CCN1C(=O)C(C2=NS(=O)(=O)c3cc(NS(C)(=O)=O)ccc3N2)=C(O)[C@@H]2C3CCC(CC3)[C@@H]21,1b,-,0.004 µM
N#Cc1c(Nc2ccnc(Cl)c2)s[nH]c1=O,-,Huh7,10–50 µM
CCN(c1cc2oc(-c3ccc(F)cc3)c(C(=O)NC)c2cc1F)S(C)(=O)=O,-,Huh7,<10 µM
CCOc1nc(NCc2ccc(F)cc2)nc2ccc(-c3cnc(N)s3)nc12,-,-,<0.1 µM
C=C1C(=O)O[C@@H]2[C@H]1CC[C@H](COC(=O)CC)[C@]1(O)CCC(=O)[C@@]21C,-,Huh7,<2 µM
N#Cc1c(Nc2cccc(Cl)c2Cl)s[nH]c1=O,-,Huh7,>50 µM
COc1ccc2c(O[C@@H]3C[C@H]4C(=O)N[C@]5(C(=O)O)C[C@H]5/C=C\CCCCC[C@H](NC(=O)OC5CCCC5)C(=O)N4C3)cc(-c3csc(NC(C)C)n3)nc2c1,Genotype 1A,Huh7,0.004 µM
CNC(=O)c1c(-c2ccc(F)cc2)oc2cc(N(C)S(C)(=O)=O)c(C3CC3)cc12,-,Huh7,<1 µM
CC[C@@H]1C[C@]1(NC(=O)[C@@H]1C[C@@H](Oc2cc(-c3ccccc3)nc3cc(OC)ccc23)CN1C(=O)[C@@H](NC(=O)OC(C)C)C(C)C)C(=O)NS(=O)(=O)C1CC1,1b,Huh7,<0.05 µM
COc1cc(C2C3CO[C@]4(O)C[C@H]2C=C([C@H]2Oc5cc(O)cc(O)c5C(=O)[C@@H]2O)[C@H]34)ccc1O,1b,Huh7,>100 µM
CCC[C@H](NC(=O)[C@@H]1[C@H]2CCC[C@H]2CN1C(=O)[C@@H](NC(=O)[C@@H](NC(=O)c1cnccn1)C1CCCCC1)C(C)(C)C)C(=O)C(=O)NC1CC1,WILD TYPE,Huh7,0.354 µM
CCOc1nc(NCc2ccc(S(N)(=O)=O)cc2)nc2ccc(-c3ccc(C(N)=O)cc3)nc12,-,-,<0.1 µM
NC(=S)Nc1ccc(-c2ccccc2)cc1,-,Huh7,<1 µM
CC[C@@H]1C[C@]1(NC(=O)C1CC(Oc2cc(-c3csc(NC(C)C)n3)nc3c(Cl)c(OC)ccc23)CN1C(=O)[C@@H](NC(=O)C1C[C@@H]2C[C@@H]2C1)C(C)(C)C)C(=O)O,1b,Huh-luc,0.009 µM
O=C(Nc1cccc(-c2cc(-c3c(Cl)cc(Cl)cc3OCCN3CCOCC3)no2)c1)C(Cl)Cl,-,-,>10 µM
Fc1ccccc1-c1nc2ccn(Cc3ccc(-c4ccc(C(F)(F)F)cc4C(F)(F)F)nn3)cc-2n1,1b,HeLa (clone SL3),17.1 µM
CNC(=O)c1c(-c2ccc(F)cc2)oc2cc(N(Cc3csc(C)n3)S(C)(=O)=O)c(OC(C)C)cc12,-,Huh7,<10 µM
O=C(Nc1ccc(S(=O)(=O)N2CCOCC2)c(-c2cc(-c3c(Cl)cccc3Cl)no2)c1)C(Cl)Cl,-,-,≤10 µM
NC(=S)Nc1cccc(OCCc2ccccc2)c1,-,Huh7,<1 µM
CC[C@@H]1C[C@]1(NC(=O)C1CC(Oc2cc(-c3csc(NC(C)C)n3)nc3c(Cl)c(OCCN4CCCCC4)ccc23)CN1C(=O)[C@@H](NC(=O)C1C[C@@H]2C[C@@H]2C1)C(C)(C)C)C(=O)O,1b,Huh-luc,0.0075 µM
C=C[C@@H]1C[C@]1(NC(=O)[C@@H]1C[C@@H](Oc2cc(-c3ccccc3)nc3cc(OC)ccc23)CN1C(=O)[C@@H](NC(=O)OC(C)(C)C)C(C)(C)C)C(=O)NS(=O)(=O)c1cccc2ccccc12,1b,Huh7,<0.5 µM
CC(C)Nc1nc(NCc2cccnc2)nc2ccc(-c3ccc(F)cc3)nc12,-,-,0.1–0.25 µM
Cc1nc(N(C)C)nc(N[C@@H]2C[C@H](CO)[C@@H](O)[C@H]2O)c1-c1nc2ccccc2s1,1b,Huh7,13 µM
CCOc1nc(N)nc2ccc(-c3cccc(NS(=O)(=O)C4CCS(=O)(=O)C4)c3)nc12,-,Huh7,<0.3 µM
CCCC1CCC(c2ccc(Nc3s[nH]c(=O)c3C#N)cc2)CC1,-,Huh7,1–10 µM
O=C(Nc1cccc(-c2cc(-c3c(Cl)cccc3N3CCOCC3)no2)c1)C(Cl)Cl,-,-,≤10 µM
COc1ccc(C)cc1Nc1s[nH]c(=O)c1C#N,-,Huh7,10–50 µM
CN(C)c1cc(Cl)c(-c2cc(-c3cccc(N(C)C(=O)C(Cl)Cl)c3)on2)c(Cl)c1,-,-,≤10 µM
CCOc1nc(NCc2ccc(F)cc2)nc2ccc(-c3ccc(C(=O)NC4(C#N)CC4)cc3)nc12,-,-,<0.1 µM
NC(=S)NCc1ccccc1,-,Huh7,<1 µM
N#Cc1c(NCC2CCCCC2)s[nH]c1=O,-,Huh7,1–10 µM
C=C1C(=O)O[C@@H]2[C@H]1CC[C@H](COC(=O)CCC)[C@]1(O)CCC(=O)[C@@]21C,-,Huh7,<2 µM
COC(=O)C1(c2ccccc2)CCN(c2cccc(NC(N)=S)c2)CC1,-,Huh7,<1 µM
CNC(=O)c1c(-c2ccc(F)cc2)oc2cc(C(C)N(C)S(C)(=O)=O)c(OC)cc12,-,Huh7,<1 µM
Nc1ncc(-c2nc3ccccc3s2)c(N[C@@H]2C[C@H](CO)[C@@H](O)[C@H]2O)n1,1b,Huh7,0.13 µM
C=C[C@@H]1C[C@]1(NC(=O)[C@@H]1C[C@@H](Oc2cc(-c3ccccc3)nc3cc(OC)ccc23)CN1C(=O)[C@@H](NC(=O)OC(C)(C)C)C(C)(C)C)C(=O)NS(=O)(=O)c1ccc(Br)cc1,1b,Huh7,<0.5 µM
N#Cc1c(Nc2cc(Cl)c(Cl)c(Cl)c2)s[nH]c1=O,-,Huh7,<1 µM
O=C(Nc1cc(-c2cc(-c3c(Cl)cccc3Cl)no2)ccc1F)C(Cl)Cl,-,-,≤10 µM
COc1ccc([C@@H]2Oc3ccc([C@H]4Oc5cc(O)cc(O)c5C(=O)[C@@H]4O)cc3O[C@H]2CO)cc1O,1b,Huh7,1.3 µM
Cc1ccccc1C(Nc1s[nH]c(=O)c1C#N)c1ccc(F)cc1C,-,Huh7,>50 µM
NS(=O)(=O)c1ccc(CNc2nc(OC3CCCC3)c3nc(-c4ccc(F)cc4)ccc3n2)cc1,-,-,<0.1 µM
CCC[C@H](NC(=O)[C@@H]1C[C@@H](Oc2cc(-c3ccccn3)nc3ccsc23)CN1C(=O)[C@@H](NC(=O)NC(C)(C)C)C(C)(C)C)C(=O)C(=O)NC1CC1,1b,-,<1 µM
C=C[C@@H]1C[C@]1(NC(=O)[C@@H]1C[C@@H](Oc2cc(-c3ccccc3)nc3cc(OC)ccc23)CN1C(=O)[C@@H](NC(=O)OC(C)(C)C)C(C)(C)C)C(=O)NS(=O)(=O)c1ccccc1C#N,1b,Huh7,<5 µM
NC(=S)NCc1ccc(-c2ccccc2)cc1,-,Huh7,<1 µM
O=C(Nc1cccc(-c2cc(-c3c(F)cccc3Cl)no2)c1)C(Cl)Cl,-,-,≤10 µM
CCOC(=O)c1ccc(NC(=O)COc2cc3c(C(=O)NC)c(-c4ccc(F)cc4)oc3cc2N(C)S(C)(=O)=O)cc1,-,Huh7,<10 µM
CCOc1nc(NCc2ccc(S(N)(=O)=O)cc2)nc2ccc(-c3ccc(F)c(S(N)(=O)=O)c3)nc12,-,-,<0.1 µM
CCC[C@H](NC(=O)[C@@H]1C[C@@H](Oc2nc(-c3ccccn3)nc3sccc23)CN1C(=O)[C@@H](NC(=O)NC(C)(C)C)C(C)(C)C)C(=O)C(=O)NC1CC1,1b,-,<1 µM
COc1ccc2c(O[C@@H]3C[C@H]4C(=O)N[C@]5(C(=O)O)C[C@H]5/C=C\CCCCC[C@H](NC(=O)OC5CCCC5)C(=O)N4C3)cc(-c3csc(NC(C)C)n3)nc2c1,-,Huh7,0.004 µM
N#Cc1c(NC2C3CC4CC(C3)CC2C4)s[nH]c1=O,-,Huh7,1–10 µM
NC(=S)Nc1cccc(Cc2ccccc2)c1,-,Huh7,<1 µM
N#Cc1c(Nc2cc(Br)cc(C(F)(F)F)c2)s[nH]c1=O,-,Huh7,<1 µM
C=C[C@@H]1C[C@]1(NC(=O)[C@@H]1C[C@@H](Oc2cc(-c3ccccc3)nc3cc(OC)ccc23)CN1C(=O)[C@@H](NC(=O)OCO)C(C)(C)C)C(=O)NS(=O)(=O)C1CC1,1b,Huh7,<0.5 µM

The last 8 rows once more:

structure,strain,cell line,value
CCOC(=O)c1ccc(NC(=O)COc2cc3c(C(=O)NC)c(-c4ccc(F)cc4)oc3cc2N(C)S(C)(=O)=O)cc1,-,Huh7,<10 µM
CCOc1nc(NCc2ccc(S(N)(=O)=O)cc2)nc2ccc(-c3ccc(F)c(S(N)(=O)=O)c3)nc12,-,-,<0.1 µM
CCC[C@H](NC(=O)[C@@H]1C[C@@H](Oc2nc(-c3ccccn3)nc3sccc23)CN1C(=O)[C@@H](NC(=O)NC(C)(C)C)C(C)(C)C)C(=O)C(=O)NC1CC1,1b,-,<1 µM
COc1ccc2c(O[C@@H]3C[C@H]4C(=O)N[C@]5(C(=O)O)C[C@H]5/C=C\CCCCC[C@H](NC(=O)OC5CCCC5)C(=O)N4C3)cc(-c3csc(NC(C)C)n3)nc2c1,-,Huh7,0.004 µM
N#Cc1c(NC2C3CC4CC(C3)CC2C4)s[nH]c1=O,-,Huh7,1–10 µM
NC(=S)Nc1cccc(Cc2ccccc2)c1,-,Huh7,<1 µM
N#Cc1c(Nc2cc(Br)cc(C(F)(F)F)c2)s[nH]c1=O,-,Huh7,<1 µM
C=C[C@@H]1C[C@]1(NC(=O)[C@@H]1C[C@@H](Oc2cc(-c3ccccc3)nc3cc(OC)ccc23)CN1C(=O)[C@@H](NC(=O)OCO)C(C)(C)C)C(=O)NS(=O)(=O)C1CC1,1b,Huh7,<0.5 µM